PubChem BioAssay AID624099, ICCB-Longwood – 2012

Screen: 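Knock-downs relieving repression by E2 of an HPV18 LCR luciferase reporter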 (primary screen)
System: human C33A cervical carcinoma cells (HPV-negative) stably expressing BPV1 E2 and an HPV18 LCR luciferase reporter
Reagent: siRNA pool against human genes, 40 nM
Duration: 72 h
Measured: 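HPV18 LCR reporter light per well, converted to plate-wise z-scores that exclude control wells, and averaged over triplicate plates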
Direction: mean z-score and z-score: higher = stronger reporter signal, weaker E2 silencing
Call rule: 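Hit if mean z-score reaches 2 and two or more of three replicate z-scores also reach 2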
Shown is a random part of about 21,000 deposited reagents. In the full data, 497 (2.4%) are marked active. 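Higher z means weaker E2 silencing; only reporter increases were scored, and knock-downs that hurt cell survival may mask genuine repressor factors.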 Unmarked entries are inactive.

gene knocked down | mean z-score | z-score, replicate A | z-score, replicate B | z-score, replicate C
LAP3 (GeneID 51056) | 0.51 | 0.31 | 0.62 | 0.61
ENO3 (GeneID 2027) | 1 | 0.81 | 1.05 | 1.15
GGTLC2 (GeneID 91227) | 1.95 | 2.27 | 1.88 | 1.69
LINC01931 (GeneID 150596) | 0.92 | 0.64 | 0.82 | 1.29
MSGN1 (GeneID 343930) | -0.18 | -0.56 | -0.01 | 0.03
CCNY (GeneID 219771) | -0.24 | -0.22 | -0.08 | -0.42
ACTR6 (GeneID 64431) | 0.72 | 0.73 | 0.88 | 0.54
ANKRD46 (GeneID 157567) | -0.62 | -0.59 | -0.34 | -0.93
TBC1D8 (GeneID 11138) | 1.53 | 1.3 | 1.57 | 1.72
ATP6V0A1 (GeneID 535) | 0.58 | 0.6 | 0.53 | 0.6
HSPA4L (GeneID 22824) | -0.34 | -0.17 | -0.42 | -0.45
PWP2 (GeneID 5822) | 0.84 | 0.85 | 0.79 | 0.88
PHF2 (GeneID 5253) | 1.53 | 2.04 | 1.43 | 1.1
HLA-A (GeneID 3105) | 0.32 | 0.42 | 0.34 | 0.21
MIR1915HG (GeneID 399726) | -0.74 | -0.78 | -0.97 | -0.49
CACNA2D2 (GeneID 9254) | 0.1 | 0.07 | 0.28 | -0.05
OR2Y1 (GeneID 134083) | -1.32 | -1.3 | -1.54 | -1.11
TMX1 (GeneID 81542) | 0.12 | 0.3 | -0.38 | 0.43
E2F7 (GeneID 144455) | 0.78 | 0.53 | 1.1 | 0.71
LOC339065 (retired record) (GeneID 339065) | -0.5 | -0.54 | -0.77 | -0.19
PCDHGB4 (GeneID 8641) | -0.23 | -0.32 | -0.33 | -0.05
GPR135 (GeneID 64582) | -0.34 | -0.49 | -0.36 | -0.18
SOCS5 (GeneID 9655) | -0.29 | 0.08 | -0.7 | -0.27
FCRLA (GeneID 84824) | 0.21 | 0.44 | 0.07 | 0.13
RIOK3 (GeneID 8780) | 0.24 | 0.27 | 0.24 | 0.21
GTF2A1 (GeneID 2957) | -1.53 | -1.39 | -1.8 | -1.39
NDUFC2 (GeneID 4718) | -1.57 | -1.43 | -1.7 | -1.58
LRFN1 (GeneID 57622) | -0.07 | -0.13 | -0.08 | 0
SFSWAP (GeneID 6433) | -0.85 | -0.84 | -1.02 | -0.7
MKKS (GeneID 8195) | 0.14 | 0.23 | -0.11 | 0.3
IFT43 (GeneID 112752) | 0.18 | -0.06 | 0.07 | 0.51
PLA2G2F (GeneID 64600) | -0.76 | -0.45 | -0.74 | -1.08
KCNK10 (GeneID 54207) | -0.55 | -0.61 | -0.41 | -0.62
ZC3H7B (GeneID 23264) | -0.17 | -0.36 | -0.35 | 0.21
PIEZO1-AS1 (GeneID 339059) | 0.5 | 0.7 | 0.49 | 0.31
HIF3A (GeneID 64344) | -0.49 | -0.64 | -0.53 | -0.31
RTN4IP1 (GeneID 84816) | -1.06 | -1.01 | -0.96 | -1.23
CLEC4D (GeneID 338339) | 0.46 | 0.65 | 0.36 | 0.37
COX10 (GeneID 1352) | 0.09 | -0.11 | 0.22 | 0.14
CENPA (GeneID 1058) | -0.52 | -0.6 | -0.55 | -0.41
FAM124B (GeneID 79843) | -0.37 | -0.66 | -0.1 | -0.35
EVC (GeneID 2121) | -0.61 | -0.77 | -0.69 | -0.37
XYLT2 (GeneID 64132) | 0.36 | 0.4 | 0.62 | 0.06
MBOAT1 (GeneID 154141) | -0.47 | -0.39 | -0.41 | -0.62
U2SURP (GeneID 23350) | -0.14 | -0.33 | -0.12 | 0.03
ZNF140 (GeneID 7699) | 0.3 | 0.29 | 0.36 | 0.26
SCRIB (GeneID 23513) | 0.04 | 0.01 | 0.28 | -0.18
COX8C (GeneID 341947) | -0.43 | -0.52 | -0.63 | -0.14
TMT1B (GeneID 196410) | 0.15 | 0.56 | -0.39 | 0.28
NAPRT (GeneID 93100) | 2.49 (active) | 2.55 | 2.11 | 2.82
PRAP1 (GeneID 118471) | 3.56 (active) | 2.73 | 3.5 | 4.45
NDUFA3 (GeneID 4696) | -0.5 | -0.53 | -0.38 | -0.58
PPP1R17 (GeneID 10842) | 0.54 | 0 | 0.9 | 0.73
CCDC177 (GeneID 56936) | -0.21 | -0.18 | -0.26 | -0.2
GPD2 (GeneID 2820) | 0.6 | 0.68 | 0.58 | 0.53
TOP3A (GeneID 7156) | -0.76 | -0.79 | -0.76 | -0.74
ESYT1 (GeneID 23344) | 0.21 | 0 | -0.04 | 0.67
